Measured values from several laboratories, pooled; numbers as filed in NIAID ChemDB.

Shared fields: whole-cell or culture tests; agent: HIV-1; cell line: CEM; endpoint: EC50

An empty or dashed field is not shown.

compound,strain or isolate,mutations,read by,result
Nc1ncnc2c1ncn2C1CC(CO)(CO)C1,LAV,,cytopathic effect,>30 µg/mL
Cc1c(Cc2cccc3ccccc23)n(COCc2ccccc2)c(=O)[nH]c1=O,LAV,,,0.075 µM
CC(C)(C)[C@H](NC(=O)c1ccccc1SSc1ccccc1C(=O)N[C@H](C(=O)O)C(C)(C)C)C(=O)O,IIIB,,cytopathic effect / XTT,18 µM
Nc1cc(OCCOCP(=O)(O)O)nc(N)n1,IIIB,,syncytia,3 µM
CCOCn1c(Sc2ccccc2)c(CC)c(=O)[nH]c1=S,IIIB,Nevirapine resistant (RT Y181C),syncytia,0.31 µM
Cc1c(Cc2cccc3ccccc23)n(COCCO)c(=O)[nH]c1=O,LAV,,,0.559 µM
CCC[C@@H](CC(=O)O)NC(=O)c1ccccc1SSc1ccccc1C(=O)N[C@@H](CCC)CC(=O)O,IIIB,,cytopathic effect / XTT,3.2 µM
Nc1nc(N)c(-c2ccccc2)c(OCCOCP(=O)(O)O)n1,IIIB,,syncytia,≥300 µM
CC1=NN2C(=N)CC(=O)N=C2N=C1/C=C/c1ccc(N(C)C)cc1,,,cytopathic effect / XTT,>0.634 µM
Cc1cn([C@@H]2O[C@@H]3CN[C@@]4(C(N)=O)CS(=O)(=O)O[C@@]34[C@H]2O)c(=O)[nH]c1=O,IIIB,,,>250 µM
CC(C)OC(=O)c1cc(NC(=S)OC(C)C)ccc1Cl,IIIB,RT-V179D,syncytia,0.33 µM
CCO[C@]12CS(=O)(=O)O[C@@]13[C@@H](CN2)O[C@@H](n1cc(C)c(=O)[nH]c1=O)[C@@H]3OC(C)=O,IIIB,,,>250 µM
O=c1ccn(C2CC(CO)(CO)C2)c(=O)[nH]1,LAV,,cytopathic effect,>30 µg/mL
COc1ccc(S(=O)(=O)N(CC2CCCC2)C[C@@H](O)CN(CCc2ccccc2)CC(=O)c2ccccc2)cc1,IIIB,,p24,<1 µM
CC(C)CN(C[C@@H](O)[C@H](Cc1ccccc1)NC(=O)OC(C)(C)C)S(=O)(=O)c1ccccc1F,IIIB,,p24,<1.001 µM
Cc1cn([C@@H]2O[C@@H]3CN[C@@]4(C#N)CS(=O)(=O)O[C@@]34[C@H]2O[Si](C)(C)C(C)(C)C)c(=O)[nH]c1=O,IIIB,,,>50 µM
Cc1nnc(N)nc1/C=C/c1c(O)ccc2ccccc12,,,cytopathic effect / XTT,>20 µM
CC(C)CN(C[C@@H](O)[C@H](Cc1ccccc1)NC(=O)OC(C)(C)C)S(=O)(=O)c1ccc(F)cc1,IIIB,,p24,<1.001 µM
NC(=O)C(NC(=O)c1ccccc1SSc1ccccc1C(=O)NC(C(N)=O)C(N)=O)C(N)=O,IIIB,,cytopathic effect / XTT,>100 µM
CCCCCO[C@]12CS(=O)(=O)O[C@@]13[C@@H](CN2)O[C@@H](n1cc(C)c(=O)[nH]c1=O)[C@@H]3O,IIIB,,,160 µM
CCOCn1c(Sc2ccccc2)c(CC)c(=O)[nH]c1=O,IIIB,RT-Y181I,syncytia,1.1 µM
CCC1=C(C2=NC[C@@H](C3CCCCC3)O2)[C@H](c2cccc(O)c2)NC(=O)N1,,,p24 / ELISA,≤1 µM
CC(=O)Nc1ccc(S(=O)(=O)N(CC(C)C)C[C@@H](O)[C@H](Cc2ccccc2)NC(=O)OCc2ccccc2)cc1,IIIB,,p24,<1.001 µM
Cn1c2ccccc2c(=O)c2c(O)cccc21,IIIB,,cytopathic effect / MTT,>5.6 µg/mL
CC1=C(C(=O)Nc2ccc(Cl)c(C(=O)OC(C)C)c2)SCCO1,IIIB,RT-Y181C,syncytia,42 µM
CCC1=C(c2nc(C3CCCCC3)cs2)C(c2ccc(F)cc2)NC(=O)N1,,,p24 / ELISA,≤1 µM
COc1ccc(S(=O)(=O)N(CC[C@H](O)Cc2ccccc2C(=O)NC(C)(C)C)CC(C)C)cc1,IIIB,,p24,<1 µM
Cc1cn([C@@H]2O[C@@H]3CN[C@@]4(OCC5CCOC5)CS(=O)(=O)O[C@@]34[C@H]2O)c(=O)[nH]c1=O,IIIB,,,20 µM
C[C@H](Cn1cnc2c(N)ncnc21)OCP(=O)(O)O,IIIB,,syncytia,1.2 µM
CCCc1c(Cc2ccc3ccccc3c2)n(COC)c(=O)[nH]c1=O,LAV,,,>59.1 µM
CSCC[C@](C)(NC(=O)c1ccccc1SSc1ccccc1C(=O)N[C@@](C)(CCSC)C(=O)O)C(=O)O,IIIB,,cytopathic effect / XTT,46 µM
Cc1nnc(N)nc1/C=C/c1ccc(Cl)cc1Cl,,,cytopathic effect / XTT,>6.33 µM
Cc1occc1C(=O)Nc1ccc(Cl)c(/C=N/N2CCCC2)c1,R82150-resistant (RT L100I),RT-L100I,syncytia,<2 µg/mL
CCC1=C(C(=O)OCC2CCCCC2)C(c2ccc(OC(=O)c3cccnc3)c(Cl)c2)NC(=O)N1,,,p24 / ELISA,≤1 µM
CC(C)c1c(Sc2ccccc2)n(COCCO)c(=O)[nH]c1=O,IIIB,RT-E138K,syncytia,0.25 µM
Cc1nnc(NC(=S)Nc2ccccc2)nc1/C=C/c1ccc(N(C)C)cc1,,,cytopathic effect / XTT,>0.2 µM
O=C(O)CC[C@H](NC(=O)c1ccccc1SSc1ccccc1C(=O)N[C@@H](CCC(=O)O)C(=O)O)C(=O)O,IIIB,,cytopathic effect / XTT,>100 µM
CC(C)C1=C(C(=O)OCC2CCCCC2)C(c2cccc(O)c2)NC(=O)N1,,,p24 / ELISA,>5 µM
O=C(O)CC[C@@H](NC(=O)c1ccccc1SSc1ccccc1C(=O)N[C@H](CCC(=O)O)C1CCCCC1)C1CCCCC1,IIIB,,cytopathic effect / XTT,7.8 µM
O=S(=O)(c1ccccc1)N(CC(O)CN(CC1CCCC1)S(=O)(=O)c1ccc(O)cc1)CC1CCCC1,IIIB,,p24,<1 µM
CCC1=C(C(=O)c2ccccc2)C(c2cccc(OC)c2)NC(=O)N1,,,p24 / ELISA,>5 µM
O=C(O)C[C@H](CC1CC1)NC(=O)c1ccccc1SSc1ccccc1C(=O)N[C@H](CC(=O)O)CC1CC1,IIIB,,cytopathic effect / XTT,5.2 µM
CCc1c(Sc2ccccc2)n(COCc2ccccc2)c(=S)[nH]c1=O,IIIB,,syncytia,0.003 µM
Cc1cn([C@@H]2O[C@@H]3CN[C@@]4(OCC(C)C)CS(=O)(=O)O[C@@]34[C@H]2O)c(=O)[nH]c1=O,IIIB,,,>250 µM
CCOC(=O)C1=C(C)NC(=O)NC1c1cccc([N+](=O)[O-])c1,,,p24 / ELISA,>5 µM
CC(=O)Nc1ccc(S(=O)(=O)N(CC(C)C)C[C@@H](O)[C@H](Cc2ccccc2)NC(=O)[C@@H](NC(=O)OCc2ccncc2)C(C)C)cc1,IIIB,,p24,<0.101 µM
CC(C)(C)OC(=O)[C@H](CC(N)=O)NC(=O)c1ccccc1SSc1ccccc1C(=O)N[C@@H](CC(N)=O)C(=O)OC(C)(C)C,IIIB,,cytopathic effect / XTT,5.2 µM
N#CCc1c(N)nc(N)nc1OCCOCP(=O)(O)O,IIIB,,syncytia,≥300 µM
CC(C)c1c(Cc2cccc3ccccc23)n(COCCO)c(=O)[nH]c1=O,LAV,,,0.111 µM
CC(C)CN(C[C@@H](O)[C@H](Cc1ccccc1)NC(=O)OCc1ccccc1)S(=O)(=O)c1ccc(N)c([N+](=O)[O-])c1,IIIB,,p24,<1.001 µM
O=C(c1ccccc1)N(CCc1ccccc1)C[C@H](O)CN(CC1CCCC1)S(=O)(=O)C1CCS(=O)(=O)C1,IIIB,,p24,<1 µM
CCOCn1c(Sc2cc(C)cc(C)c2)c(CC)c(=O)[nH]c1=S,IIIB,RT-E138K,syncytia,0.03 µM
CCOC(=O)C1=C(C)NC(=O)NC1c1cccc(O)c1,,,p24 / ELISA,>5 µM
COc1ccc(S(=O)(=O)N(CC(O)CN2C(=O)OC[C@@H]2Cc2ccccc2)CC2CCCC2)cc1,IIIB,,p24,<1 µM
Cc1cn([C@@H]2O[C@@H]3CN[C@@]4(OCC(C)(C)C)CS(=O)(=O)O[C@@]34[C@H]2O[Si](C)(C)C(C)(C)C)c(=O)[nH]c1=O,IIIB,,,<10 µM
Nc1nc(N)c(Cc2ccccc2)c(OCCOCP(=O)(O)O)n1,IIIB,,syncytia,≥300 µM
CC[C@H](C)[C@H](NC(=O)OCc1ccccc1)C(=O)N[C@@H](Cc1ccccc1)[C@H](O)CN(CC(C)C)S(=O)(=O)c1ccc(F)c(NC(C)=O)c1,IIIB,,p24,<0.101 µM
CCOCn1c(Cc2ccccc2)c(C(C)C)c(=O)[nH]c1=O,IIIB,RT-Y181C,syncytia,0.22 µM
COc1ccc(S(=O)(=O)N(CC(C)C)C[C@@H](O)CC(=O)N2CCN(Cc3cccnc3)C[C@H]2C(=O)NC(C)(C)C)cc1,IIIB,,p24,<1 µM
CC(C)c1c(Sc2ccccc2)n(COCCO)c(=S)[nH]c1=O,IIIB,RT-E138K,syncytia,0.15 µM
CC(C)C[C@@H](CO)NC(=O)c1ccccc1SSc1ccccc1C(=O)N[C@H](CO)CC(C)C,IIIB,,cytopathic effect / XTT,>12.4 µM

A second listing of 5 rows from above:

CC(C)c1c(Sc2ccccc2)n(COCCO)c(=O)[nH]c1=O ; strain or isolate: IIIB ; mutations: RT-E138K ; read by: syncytia ; result: 0.25 µM
COc1ccc(S(=O)(=O)N(CC[C@H](O)Cc2ccccc2C(=O)NC(C)(C)C)CC(C)C)cc1 ; strain or isolate: IIIB ; read by: p24 ; result: <1 µM
CC(C)(C)OC(=O)[C@H](CC(N)=O)NC(=O)c1ccccc1SSc1ccccc1C(=O)N[C@@H](CC(N)=O)C(=O)OC(C)(C)C ; strain or isolate: IIIB ; read by: cytopathic effect / XTT ; result: 5.2 µM
O=C(c1ccccc1)N(CCc1ccccc1)C[C@H](O)CN(CC1CCCC1)S(=O)(=O)C1CCS(=O)(=O)C1 ; strain or isolate: IIIB ; read by: p24 ; result: <1 µM
CCCCCO[C@]12CS(=O)(=O)O[C@@]13[C@@H](CN2)O[C@@H](n1cc(C)c(=O)[nH]c1=O)[C@@H]3O ; strain or isolate: IIIB ; result: 160 µM

ECn: concentration that inhibits the pathogen or its effect by n%. Lines come from different laboratories, so protocols vary.